Experimental data reported in patent publication US20100068147A1, “DENGUE DIAGNOSIS AND TREATMENT” (Agency for Science , Technology and Research, priority 2006, published 2010).
The amount applied is not stated for every result.

Tested on: HepG2 cells
Assay: TaqMan low density array (TLDA) gene expression, HepG2 cells, dengue virus over heat-inactivated virus
Assay type: cell-based, human
Conditions: dengue virus infection over heat-inactivated virus

How did the “Fold increase in gene expression as determined by TLDA, HepG2 48 hrs” value (48 hrs) turn out when RANTES was run?
The value was 296.5 fold.

And the “Fold increase in gene expression as determined by TLDA, HepG2 72 hrs” value (72 hrs)?
Its value is 1079.5 fold.
